Laboratory results reported in BindingDB's records for 12904075.

By UniProt entry, the sequences of proteins in these tests, tags left out.
UniProt Q14761, whole entry, looked up: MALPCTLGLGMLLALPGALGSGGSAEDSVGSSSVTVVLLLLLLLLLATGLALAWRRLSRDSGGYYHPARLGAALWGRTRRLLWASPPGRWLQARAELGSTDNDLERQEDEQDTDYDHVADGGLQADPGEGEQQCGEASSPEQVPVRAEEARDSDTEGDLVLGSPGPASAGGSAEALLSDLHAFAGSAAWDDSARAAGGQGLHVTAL

Molecular target: Protein tyrosine phosphatase receptor type C-associated protein (Homo sapiens, UniProt Q14761)
Assay: ASSAY_NAME: ChEMBL_210866 (CHEMBL812679) DESCRIPTION: Inhibitory activity against Tyrosine phosphatase from Yersinia (Yop protein)

Row | Compound | Ki [mM]
1 | CP(=O)(O)O | 30
2 | CP(O)(O)=S | 7
